Reference: patent publication US20230374114A1, “Coronavirus antibodies and methods of use thereof” (Dana-Farber, published 2023)

B1: Ab 38 (scFv, V domains shown)
VH: QVTLKESGPTLVKPTQTLTLTCTFSGFSLTTSGVSVGWIRQPPGKALEWLALIHWDDDKRYSPSLRSRLTITRDTSKNQVVLTVTDMDPADTGTYYCASFIMTVYAEYFEDWGQGTLVTVSS
VL: EIVLTQSPATLSVSPGERATLSCRASQSVSSNLAWYQQKPGQAPRLLMYDVSTRATGIPARFSGSGSGTEFSLTISSLQSEDFAVYYCQQRGAWPLTFGGGTKVEIK
notes: also called Ab 38 scFv-Fc
B2: S1-RBD-R3-T1-F9 Ab (Ab_39) (scFv, V domains shown)
VH: QVTLKESGPTLVKPTQTLTLTCTLSGVSLDTIGMRVSWIRQPPGKALEWLARIDWDDDKFYSTALKTRLTISKDTSKNQVVFTMTSMDPVDTATYYCARSGLLYDLDVWGRGTLVTVSS
VL: QSVVTQPPSVSGAPGQRVTISCTGSDSDIGANFVQWYQQLPGTAPKLLIWRNTNRPSGVPDRFSASKSGTSASLAITGLQAEDEADYFCQSYDSSLSAYVFGGGTKVTVL
notes: also called Ab 39 scFv-Fc

Biological target: WT Spike (SARS-CoV2, UniProt P0DTC2 16-1213)
Assay: biosensor kinetics; scFv-Fc loaded at 1 ug/ml, spike as analyte at 48.3 nM

| Binder | Response |
| --- | --- |
| B1 | 0.274 |
| B2 | 0.369 |
